Assay results reported in patent publication US20230381142A1, “ANTILEISHMANIAL COMPOUNDS, COMPOSITIONS AND USE THEREOF” (TRUSTEES OF BOSTON UNIVERSITY, priority 2022, published 2023).

Tested on: L. donovani intracellular amastigotes infecting THP-1 macrophages
Experiment: GSK intramacrophage L. donovani assay (LD AMMAC, inMac; Assay Conditions C)
Assay type: cell-based, Leishmania donovani
Experimental: Assay Conditions C: The intramacrophage Leishmania donovani activity assay was performed as described in Antimicrob Agents Chemother (2013) 57(7):2913-22.
The intramacrophage Leishmania donovani activity assay (LD AMMAC) at GlaxoSmithKline was performed as described.
Given the literature precedents described above and the apparent narrow tolerance for R^3 substitutions observed in the primary screen compounds, a thorough and methodical assessment was undertaken of tolerated groups at the three points of diversity (R^1/R^2/R^3) for the core. At this stage of the project, all analogues were assessed using a battery of assays performed in-house at GlaxoSmithKline. For antileishmanial activity, GSK's inMac assay was utilized. This assay provides two readouts of compound potency: average number of intracellular amastigotes per infected cell (AMMAC) EC50, percentage of infected cells per well (INFCELL) EC50, as well as a toxicity output derived from the number of host cells (MAC EC50). In addition, compounds were assessed for toxicity against HepG2 cells (HEPG2 EC50). Here, AMMAC EC50 values were focused on for relative potency assessments. […] It should be noted that for all compounds assessed in this project, the measured toxicity against THP-1 macrophages either equaled or exceeded that of HepG2 hepatocytes, therefore the MAC SI is used here as the more conservative estimate of therapeutic index.

[1] = rows whose L. donovani EC50 is in THP-1 cells (c)
[2] = THP-1 CC50 / L. donovani EC50 (THP-1)

SMILES	SI Host cell potency/L. donovani potency [1]	SI Host cell potency/L. donovani potency [2]
COc1ccc(N2C(=O)c3[nH]nc(CC(C)C)c3[C@@H]2c2ccc(F)cc2C)cc1 [CMLD010949]	79.4	–
COc1ccc(N2C(=O)c3[nH]nc(CC(C)C)c3[C@H]2c2ccc(F)cc2C)cc1 [CMLD010950]	5.0	–
COc1ccc(N2C(=O)c3[nH]nc(CC(C)C)c3[C@@H]2c2ccccc2Br)cn1 [CMLD010976]	20.0	–
COc1ccc(N2C(=O)c3[nH]nc(CC(C)C)c3[C@H]2c2ccccc2Br)cn1 [CMLD010977]	–	12.6
COc1ccc(N2C(=O)c3[nH]nc(CC(C)C)c3C2C2CCCC2)cc1 (stereo not drawn) [CMLD010978]	1.6	–
COc1ccc(N2C(=O)c3[nH]nc(-c4ccc(CC(C)C)cc4)c3C2c2ccc(F)cc2)cc1 (stereo not drawn) [CMLD010979]	2.0	–
COc1ccc(N2C(=O)c3[nH]nc(-c4ccc5c(c4)CCC5)c3C2c2ccc(F)cc2)cc1 (stereo not drawn) [CMLD010980]	1.6	–
COc1ccc(N2C(=O)c3[nH]nc(CCC=C(C)C)c3C2c2ccc(F)cc2)cc1 (stereo not drawn) [CMLD010981]	3.2	–
CCCn1nc(CC(C)C)c2c1C(=O)N(c1ccc(OC)cc1)C2c1ccc(F)cc1 (stereo not drawn) [CMLD010982]	5.0	–
C=CCn1nc2c(c1CC(C)C)C(c1ccc(F)cc1)N(c1ccc(OC)cc1)C2=O (stereo not drawn) [CMLD010984]	–	5.0
C=CCn1nc(CC(C)C)c2c1C(=O)N(c1ccc(OC)cc1)C2c1ccc(F)cc1 (stereo not drawn) [CMLD010985]	12.6	–
C#CCn1nc2c(c1CC(C)C)C(c1ccc(F)cc1)N(c1ccc(OC)cc1)C2=O (stereo not drawn) [CMLD010986]	–	7.9
C#CCn1nc(CC(C)C)c2c1C(=O)N(c1ccc(OC)cc1)C2c1ccc(F)cc1 (stereo not drawn) [CMLD010987]	12.6	–
COc1ccc(N2C(=O)c3nn(C)c(CC(C)C)c3C2c2ccc(F)cc2)cc1 (stereo not drawn) [CMLD010988]	–	3.2
COc1ccc(N2C(=O)c3c(c(CC(C)C)nn3C)C2c2ccc(F)cc2)cc1 (stereo not drawn) [CMLD010989]	15.8	–
CCCn1nc2c(c1CC(C)C)C(c1ccc(F)cc1)N(c1ccc(OC)cc1)C2=O (stereo not drawn) [CMLD010990]	–	3.2
COc1ccc(N2C(=O)c3[nH]nc(CC(C)C)c3C2c2cncs2)cc1 (stereo not drawn) [CMLD010991]	>3.1	–
COc1ccc(N2C(=O)c3[nH]nc(CC(C)C)c3C2c2ccc(F)cc2)c(OC)c1 (stereo not drawn) [CMLD010992]	1.6	–
CC(C)Cc1n[nH]c2c1[C@H](c1ccc(F)cc1)N(c1ccc3ncnn3c1)C2=O [CMLD010993]	2.5	–
COc1ccc(N2C(=O)c3[nH]nc(CC(C)C)c3C2c2ccccc2OC)cc1 (stereo not drawn) [CMLD010994]	50.2	–
COc1ccc(N2C(=O)c3[nH]nc(CC(C)C)c3C2c2cc(C(F)(F)F)ccc2C(F)(F)F)cc1 (stereo not drawn) [CMLD010996]	4.0	–
CC(C)Cc1n[nH]c2c1C(c1ccccc1Cl)N(c1ccc(-n3ccnc3)cc1)C2=O (stereo not drawn) [CMLD010998]	7.9	–

SMILES	SI Host cell potency/L. donovani potency [1]	SI Host cell potency/L. donovani potency [2]
C=CCCc1n[nH]c2c1C(c1ccc(F)cc1)N(c1ccc(OC)cc1)C2=O (stereo not drawn) [CMLD011024]	2.0	–
C=C(C)CCc1n[nH]c2c1C(c1ccc(F)cc1)N(c1ccc(OC)cc1)C2=O (stereo not drawn) [CMLD011025]	3.2	–
COc1ccc(CN2C(=O)c3[nH]nc(CC(C)C)c3C2c2ccc(F)cc2)cc1 (stereo not drawn) [CMLD011026]	>2.5	–
COc1ccc(N2C(=O)c3[nH]nc(CC(C)C)c3C2c2ccc(OC)nc2)cc1 (stereo not drawn) [CMLD011027]	1.0	–
COc1ccc(N2C(=O)c3[nH]nc(CC(C)C)c3C2c2cc(F)nc(F)c2)cc1 (stereo not drawn) [CMLD011028]	1.0	–
CC(C)Cc1n[nH]c2c1C(c1ccc(F)cc1)N(c1ccc(O)cc1)C2=O (stereo not drawn) [CMLD011029]	8.0	–
CC(C)Cc1n[nH]c2c1C(c1ccc(F)cc1)N(C1CCOCC1)C2=O (stereo not drawn) [CMLD011030]	>1.6	–
COc1ccc(N2C(=O)c3[nH]nc(CC(C)C)c3C2c2ccc(C(=O)O)cc2)cc1 (stereo not drawn) [CMLD011032]	1.0	–
COC(=O)c1ccc(N2C(=O)c3[nH]nc(CC(C)C)c3C2c2ccc(F)cc2)cc1 (stereo not drawn) [CMLD011033]	20.0	–
COC(=O)c1ccc(C2c3c(CC(C)C)n[nH]c3C(=O)N2c2ccc(OC)cc2)cc1 (stereo not drawn) [CMLD011034]	1.6	–
CCC(C)(COC(C)=O)CN1C(=O)c2[nH]nc(CC(C)C)c2C1c1ccc(F)cc1 (stereo not drawn) [CMLD011035]	5.0	–
CO[C@H]1CC[C@H](N2C(=O)c3[nH]nc(CC(C)C)c3C2c2ccc(F)cc2)CC1 (stereo partly drawn) [CMLD011036]	>2.0	–
CC(=O)OCC(CO)N1C(=O)c2[nH]nc(CC(C)C)c2C1c1ccc(F)cc1 (stereo not drawn) [CMLD011037]	–	1.0
CC(C)Cc1n[nH]c2c1C(c1ccc(F)cc1)N(CC(C)(CO)CO)C2=O (stereo not drawn) [CMLD011038]	–	1.0
CC(C)Cc1n[nH]c2c1C(c1ccc(F)cc1)N(c1ccc(N(C)C)cc1)C2=O (stereo not drawn) [CMLD011039]	39.8	–
COc1ccc(OC)c(N2C(=O)c3[nH]nc(CC(C)C)c3C2c2ccc(F)cc2)c1 (stereo not drawn) [CMLD011040]	2.0	–
CC(C)Cc1n[nH]c2c1C(C1CCCCC1)N(c1ccc(C(C)(C)C)cc1)C2=O (stereo not drawn) [CMLD011042]	20.0	–
CC(C)Cc1n[nH]c2c1C(C1CCCCC1)N(c1ccc3c(c1)OCO3)C2=O (stereo not drawn) [CMLD011043]	3.2	–
COc1cccc(N2C(=O)c3[nH]nc(CC(C)C)c3C2C2CCCCC2)c1 (stereo not drawn) [CMLD011044]	–	7.9
COc1ccccc1N1C(=O)c2[nH]nc(CC(C)C)c2C1C1CCCCC1 (stereo not drawn) [CMLD011045]	–	2.5
COc1ccccc1N1C(=O)c2[nH]nc(CC(C)C)c2C1c1ccc(F)cc1 (stereo not drawn) [CMLD011046]	>2.5	–
CC(C)Cc1n[nH]c2c1C(c1ccccc1Cl)N(c1ccc(C(C)(C)C)cc1)C2=O (stereo not drawn) [CMLD011047]	–	2.5

SMILES	SI Host cell potency/L. donovani potency [1]	SI Host cell potency/L. donovani potency [2]
CC(C)Cc1n[nH]c2c1C(c1ccc(F)cc1)N(CCN1CCCC1)C2=O (stereo not drawn) [CMLD011072]	>3.2	–
COc1cc(N2C(=O)c3[nH]nc(CC(C)C)c3C2c2ccc(F)cc2)ccc1F (stereo not drawn) [CMLD011073]	–	0.8
COc1ccc(N2C(=O)c3[nH]nc(CC(C)C)c3C2c2nccs2)cc1 (stereo not drawn) [CMLD011075]	>2.5	–
COc1ccc(N2C(=O)c3[nH]nc(CC(C)C)c3[C@H]2c2cccc(C(F)(F)F)c2)cn1 [CMLD011076]	–	1.6
COc1cc(N2C(=O)c3[nH]nc(CC(C)C)c3C2c2ccccc2Br)cc(OC)c1OC (stereo not drawn) [CMLD011077]	–	1.0
CC(C)Cc1n[nH]c2c1C(c1ccccc1Cl)N(c1ccc(F)cc1)C2=O (stereo not drawn) [CMLD011078]	–	5.0
COc1ccc(N2C(=O)c3[nH]nc(CC(C)C)c3C2c2ccc(F)cc2F)cc1 (stereo not drawn) [CMLD011079]	12.6	–
COC(=O)c1ccc(N2C(=O)c3[nH]nc(CC(C)C)c3C2c2cccc(C(F)(F)F)c2)cc1 (stereo not drawn) [CMLD011080]	–	4.0
CC(C)Cc1n[nH]c2c1C(c1cccc(C(F)(F)F)c1)N(c1ccc(Br)cc1)C2=O (stereo not drawn) [CMLD011081]	1.0	–
CC(C)Cc1n[nH]c2c1C(C1CCCCC1)N(c1ccc(Br)cc1)C2=O (stereo not drawn) [CMLD011087]	–	1.3
COc1ccc(N2C(=O)c3[nH]nc(CC(C)C)c3C2c2cccc(OC)c2)cc1 (stereo not drawn) [CMLD011088]	5.0	–
COc1ccc(N2C(=O)c3[nH]nc(CC(C)C)c3C2C2CCCCC2)cc1F (stereo not drawn) [CMLD011090]	–	10.0
Cc1ccc(CN2C(=O)c3[nH]nc(CC(C)C)c3C2c2ccc(F)cc2)o1 (stereo not drawn) [CMLD011092]	>2.5	–
COc1ccc(N2C(=O)c3[nH]nc(-c4ccc(Cl)cc4Cl)c3C2c2ccc(F)cc2)cc1 (stereo not drawn) [CMLD011093]	>2.5	–
COC(=O)c1ccc(N2C(=O)c3[nH]nc(CC(C)C)c3C2C2CCCCC2)cc1 (stereo not drawn) [CMLD011094]	>1.25	–
CC(C)Cc1n[nH]c2c1C(c1ccc(F)cc1)N(c1ccccn1)C2=O (stereo not drawn) [CMLD011095]	>2.5	–
COc1ccc(N2C(=O)c3[nH]nc(CC(C)C)c3C2c2ccc(Cl)cc2)cc1 (stereo not drawn) [CMLD011096]	4.0	–
CC(C)Cc1n[nH]c2c1C(c1ccc(F)cc1)N(c1ccc(F)cc1F)C2=O (stereo not drawn) [CMLD011097]	3.2	–
CC(C)Cc1n[nH]c2c1C(c1ccc(F)cc1)N(c1cccnc1)C2=O (stereo not drawn) [CMLD011098]	>2.0	–
COc1ccc(N2C(=O)c3[nH]nc(CC(C)C)c3C2c2cccc(Cl)c2)cc1 (stereo not drawn) [CMLD011099]	5.0	–
COc1ccc(N2C(=O)c3[nH]nc(CC(C)C)c3C2c2ccc(F)cn2)cc1 (stereo not drawn) [CMLD011100]	>5.0	–
CC(C)Cc1n[nH]c2c1C(c1ccc(F)cc1)N(c1ccc3c(c1)OCCO3)C2=O (stereo not drawn) [CMLD011101]	7.9	–
